PubChem BioAssay AID1224833 | University of Georgia | 2016
Shown is a random part of about 12,000 reagents. About 5,600 of all reagents (46%) count as active. 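Active calls cover z-scores past 1 in both directions, so they include lowered as well as raised rotavirus replication.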 No sequences are given here.

- Aim: 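Host factors restraining rotavirus as candidate antiviral genes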 (primary screen)
- Cell system: monkey MA104 kidney cells
- Reagents: siRNA pool against human genes, 50 nM
- Duration: 48 h knock-down before infection; read 24 h after infection
- Treatment: infection with rotavirus strain RV3 two days after transfection; infectious dose for this stage not given
- Measurement: 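z-score of rotavirus antigen signal per well, from a fluorescent immunoassay, relative to non-targeting control wells on the same plate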
- Direction: z-score vs non-targeting control: higher = more rotavirus replication than with non-targeting control
- Rule for the call: In these data the active calls have z-score vs non-targeting control at about -1 or lower, or at about 1 or higher
- Calls: active = z-score beyond 1 either way; inactive = z-score within 1 of zero

Target gene,z-score vs non-targeting control,activity call
SP8 (Sp8 transcription factor),-0.188,inactive
PLB1 (phospholipase B1),-3.05,active
ERAS (ES cell expressed Ras),-1.04,active
ZNF177 (zinc finger protein 177),0.169,inactive
CDIPT (CDP-diacylglycerol--inositol 3-phosphatidyltransferase),-2.92,active
MYO7A (myosin VIIA),0.43,inactive
FOXR1 (forkhead box R1),-0.368,inactive
MSN (moesin),0.306,inactive
LRRC25 (leucine rich repeat containing 25),-1.26,active
ZNF678 (zinc finger protein 678),-1.09,active
ZC3H14 (zinc finger CCCH-type containing 14),1.3,active
TRAPPC14 (trafficking protein particle complex subunit 14),2.82,active
"DECR2 (2,4-dienoyl-CoA reductase 2)",-1.8,active
IL6 (interleukin 6),-0.711,inactive
OR14A16 (olfactory receptor family 14 subfamily A member 16),-0.361,inactive
FLVCR2 (FLVCR choline and putative heme transporter 2),-1.23,active
AGFG1 (ArfGAP with FG repeats 1),-1.58,active
MACROH2A1 (macroH2A.1 histone),1.63,active
NOX3 (NADPH oxidase 3),-1.02,active
SNX27 (sorting nexin 27),2.17,active
SOST (sclerostin),0.719,inactive
TXK (TXK tyrosine kinase),-1.2,active
EXTL2 (exostosin like glycosyltransferase 2),-2.04,active
CRTC1 (CREB regulated transcription coactivator 1),-1.51,active
LRRC37A (leucine rich repeat containing 37A),-2.08,active
NNT (nicotinamide nucleotide transhydrogenase),-0.798,inactive
TBC1D21 (TBC1 domain family member 21),2.24,active
USP54 (ubiquitin specific peptidase 54),0.116,inactive
CFAP263 (cilia and flagella associated protein 263),0.607,inactive
NCSTN (nicastrin),0.888,inactive
BLOC1S2 (biogenesis of lysosomal organelles complex 1 subunit 2),-0.0968,inactive
LOC401052 (retired record),-0.537,inactive
SAMD4A (sterile alpha motif domain containing 4A),-1.17,active
RIMBP2 (RIMS binding protein 2),-2.03,active
DHRS2 (dehydrogenase/reductase 2),-0.851,inactive
COA8 (cytochrome c oxidase assembly factor 8),-3.82,active
CEP170 (centrosomal protein 170),0.0944,inactive
PIGB (phosphatidylinositol glycan anchor biosynthesis class B),-1.35,active
WDR74 (WD repeat domain 74),1.29,active
H4C2 (H4 clustered histone 2),1.01,active
DDX54 (DEAD-box helicase 54),-0.804,inactive
PCDHA6 (protocadherin alpha 6),1.08,active
CD99 (CD99 molecule (Xg blood group)),0.474,inactive
LPAR2 (lysophosphatidic acid receptor 2),-1.95,active
SERPINA3 (serpin family A member 3),1.17,active
ARL9 (ARF like GTPase 9),-2.76,active
AGTRAP (angiotensin II receptor associated protein),-0.586,inactive
PRPF3 (pre-mRNA processing factor 3),-0.519,inactive
GKN1 (gastrokine 1),1.14,active
ZNF529 (zinc finger protein 529),0.128,inactive
PLEKHB1 (pleckstrin homology domain containing B1),2.23,active
MRAP (melanocortin 2 receptor accessory protein),0.183,inactive
ABHD18 (abhydrolase domain containing 18),1.72,active
SRRM1 (serine and arginine repetitive matrix 1),-2.1,active
PADI2 (peptidyl arginine deiminase 2),-0.778,inactive
ARL15 (ARF like GTPase 15),0.0746,inactive
ABCF2 (ATP binding cassette subfamily F member 2),-1.75,active
IKZF1 (IKAROS family zinc finger 1),0.972,inactive
C10orf62 (chromosome 10 open reading frame 62),-1.45,active
TOR3A (torsin family 3 member A),1.15,active
ZNF777 (zinc finger protein 777),0.457,inactive
FOXJ3 (forkhead box J3),-1.32,active
CHRDL1 (chordin like 1),0.118,inactive
GATAD1 (GATA zinc finger domain containing 1),-0.265,inactive
GNPTAB,2.47,active
AMIGO3 (adhesion molecule with Ig like domain 3),-0.0377,inactive
KRTAP13-3 (keratin associated protein 13-3),-1.13,active
"PCDHGC4 (protocadherin gamma subfamily C, 4)",-0.375,inactive
RRAS2 (RAS related 2),1.08,active
CRYBG3 (crystallin beta-gamma domain containing 3),-0.238,inactive
PIDD1 (p53-induced death domain protein 1),1.94,active
"TMEM129 (transmembrane protein 129, E3 ubiquitin ligase)",-1.29,active
MRPS12 (mitochondrial ribosomal protein S12),-0.119,inactive
TBX4 (T-box transcription factor 4),1.43,active
ZNF395 (zinc finger protein 395),-0.303,inactive
LRRC4 (leucine rich repeat containing 4),0.837,inactive
SLC25A39,1.89,active
ZNF207 (zinc finger protein 207),-0.842,inactive
STAU2 (staufen double-stranded RNA binding protein 2),0.4,inactive
GPN1 (GPN-loop GTPase 1),0.529,inactive
OR2Z1 (olfactory receptor family 2 subfamily Z member 1),0.321,inactive
OR10A4 (olfactory receptor family 10 subfamily A member 4),-0.132,inactive
FMN2 (formin 2),0.136,inactive
ZNF79 (zinc finger protein 79),-2.23,active
DENND2C (DENN domain containing 2C),0.738,inactive
CHODL (chondrolectin),-0.537,inactive
TSC1 (TSC complex subunit 1),-1.11,active
CDYL2 (chromodomain Y like 2),0.743,inactive
WIPF1 (WAS/WASL interacting protein family member 1),-1.27,active
SLC20A1,0.887,inactive
TAF15 (TATA-box binding protein associated factor 15),-1.7,active
NFE2L3 (NFE2 like bZIP transcription factor 3),-1.33,active
WDR36 (WD repeat domain 36),-0.837,inactive
CREBBP (CREB binding lysine acetyltransferase),1.83,active
BAGE3 (BAGE family member 3),-0.308,inactive
LHX4 (LIM homeobox 4),-1.75,active
STN1 (STN1 subunit of CST complex),1.65,active
ZNF551 (zinc finger protein 551),0.129,inactive
OPN3 (opsin 3),0.709,inactive
DYNC1I2 (dynein cytoplasmic 1 intermediate chain 2),-0.833,inactive
SLC25A42,0.654,inactive
EVPL (envoplakin),-0.49,inactive
IFIT3 (interferon induced protein with tetratricopeptide repeats 3),-1.59,active
LINC02913 (long independently transcribed non-coding RNA 2913),1.2,active
DIPK2A (divergent protein kinase domain 2A),-1.06,active
RSPH14 (radial spoke head 14 homolog),-0.524,inactive
SAP30BP (SAP30 binding protein),-1.72,active
BAZ2A (bromodomain adjacent to zinc finger domain 2A),-0.884,inactive
RDM1 (RAD52 motif containing 1),2.06,active
FTSJ3 (FtsJ RNA 2'-O-methyltransferase 3),-1.37,active
BICD1 (BICD cargo adaptor 1),-1.21,active
DNAH5 (dynein axonemal heavy chain 5),1.85,active
TBL3 (transducin beta like 3),-1.56,active
ICOSLG (inducible T cell costimulator ligand),0.65,inactive
GLYAT (glycine-N-acyltransferase),-0.785,inactive
CD74 (CD74 molecule),-3.37,active
SLC13A4,1.56,active
"CROCC (ciliary rootlet coiled-coil, rootletin)",-1.27,active
FAHD2A (fumarylacetoacetate hydrolase domain containing 2A),-1.77,active
CXCL16 (C-X-C motif chemokine ligand 16),0.628,inactive
RNH1 (ribonuclease/angiogenin inhibitor 1),0.122,inactive
DOP1A (DOP1 leucine zipper like protein A),-0.765,inactive
CCDC6 (coiled-coil domain containing 6),-1.07,active
OTC (ornithine transcarbamylase),-1.38,active
TAGLN (transgelin),-0.78,inactive
FAM9B (family with sequence similarity 9 member B),-0.897,inactive
ZBTB45 (zinc finger and BTB domain containing 45),-1.85,active
NT5DC3 (5'-nucleotidase domain containing 3),0.479,inactive
ACCS,-0.642,inactive
LACTB2 (lactamase beta 2),1.24,active
ADGRE3 (adhesion G protein-coupled receptor E3),1.32,active
NDFIP1 (Nedd4 family interacting protein 1),-1.08,active
SNCA (synuclein alpha),-1.45,active
ZNF609 (zinc finger protein 609),-0.0317,inactive
CNN1 (calponin 1),-0.244,inactive
PDE1B (phosphodiesterase 1B),0.876,inactive
PTGFR (prostaglandin F receptor),-0.959,inactive
"FAM169BP (family with sequence similarity 169 member B, pseudogene)",0.96,inactive
"PROC (protein C, inactivator of coagulation factors Va and VIIIa)",-1.02,active
LILRA2 (leukocyte immunoglobulin like receptor A2),-0.576,inactive

19 entries from above, ordered by “z-score vs non-targeting control”, ascending:
Target gene,z-score vs non-targeting control,activity call
LRRC37A (leucine rich repeat containing 37A),-2.08,active
EXTL2 (exostosin like glycosyltransferase 2),-2.04,active
AGFG1 (ArfGAP with FG repeats 1),-1.58,active
CRTC1 (CREB regulated transcription coactivator 1),-1.51,active
FLVCR2 (FLVCR choline and putative heme transporter 2),-1.23,active
TXK (TXK tyrosine kinase),-1.2,active
SAMD4A (sterile alpha motif domain containing 4A),-1.17,active
NOX3 (NADPH oxidase 3),-1.02,active
NNT (nicotinamide nucleotide transhydrogenase),-0.798,inactive
LOC401052 (retired record),-0.537,inactive
OR14A16 (olfactory receptor family 14 subfamily A member 16),-0.361,inactive
BLOC1S2 (biogenesis of lysosomal organelles complex 1 subunit 2),-0.0968,inactive
USP54 (ubiquitin specific peptidase 54),0.116,inactive
CFAP263 (cilia and flagella associated protein 263),0.607,inactive
SOST (sclerostin),0.719,inactive
NCSTN (nicastrin),0.888,inactive
MACROH2A1 (macroH2A.1 histone),1.63,active
SNX27 (sorting nexin 27),2.17,active
TBC1D21 (TBC1 domain family member 21),2.24,active
